{"source": "PubChem BioAssay AID1259414 (Drosophila RNAi Screening Center, 2018)", "purpose": "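Host factors increasing or decreasing Wolbachia levels in cultured fly cells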 (primary screen)", "cells": "Drosophila JW18 cells infected with Wolbachia", "reagent": "long dsRNA against Drosophila genes, 0.25 µg dsRNA per well of a 384-well plate", "duration": "5 days", "conditions": "cells persistently infected with Wolbachia before knock-down; no added drug", "measured": "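Automated imaging of bacterial rRNA staining divided by host cell count, reported as plate-normalised robust z-score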", "direction": "Wolbachia per cell robust z: higher = more Wolbachia per host cell than the plate typical", "active means": "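Active if absolute robust z reaches 1.5 in two or more of three replicates, leaving out multi- or no-target dsRNAs, genes unexpressed in JW18 and A1 wells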", "note": "In all, the deposit lists about 24,000 reagents; below is an unselected part of those that have a named target and a result. In the full data, about 1,210 (5%) were called active. 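Inactive calls also include excluded dsRNAs with several or no targets, genes unexpressed in JW18, and well A1, regardless of score.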 Unmarked entries are inactive. The numbers tell different reagents against one gene apart."}
{"target": "CG9578", "dsRNA no.": 1, "Wolbachia per cell robust z, rep 1": 0.556, "Wolbachia per cell robust z, rep 2": 0.239, "Wolbachia per cell robust z, rep 3": -0.714}
{"target": "CG9578", "dsRNA no.": 2, "Wolbachia per cell robust z, rep 1": 0.00425, "Wolbachia per cell robust z, rep 2": 0.585, "Wolbachia per cell robust z, rep 3": 1.49}
{"target": "c-cup", "dsRNA no.": 1, "Wolbachia per cell robust z, rep 1": -4.46, "Wolbachia per cell robust z, rep 2": -1, "Wolbachia per cell robust z, rep 3": -0.736}
{"target": "CG4768", "dsRNA no.": 1, "Wolbachia per cell robust z, rep 1": -2.22, "Wolbachia per cell robust z, rep 2": 0.154, "Wolbachia per cell robust z, rep 3": -1.77}
{"target": "CG10280", "dsRNA no.": 1, "Wolbachia per cell robust z, rep 1": 0.471, "Wolbachia per cell robust z, rep 2": -1.63, "Wolbachia per cell robust z, rep 3": 0.0646}
{"target": "CG10280", "dsRNA no.": 2, "Wolbachia per cell robust z, rep 1": -0.844, "Wolbachia per cell robust z, rep 2": 0.268, "Wolbachia per cell robust z, rep 3": 0.87}
{"target": "Psa", "dsRNA no.": 1, "Wolbachia per cell robust z, rep 1": 0.68, "Wolbachia per cell robust z, rep 2": -0.986, "Wolbachia per cell robust z, rep 3": -1.94}
{"target": "CG15772", "dsRNA no.": 1, "Wolbachia per cell robust z, rep 1": -0.956, "Wolbachia per cell robust z, rep 2": -0.0199, "Wolbachia per cell robust z, rep 3": 0.63}
{"target": "hyd", "dsRNA no.": 1, "Wolbachia per cell robust z, rep 1": 1.62, "Wolbachia per cell robust z, rep 2": -1.5, "Wolbachia per cell robust z, rep 3": 0.716}
{"target": "hyd", "dsRNA no.": 2, "Wolbachia per cell robust z, rep 1": -4.07, "Wolbachia per cell robust z, rep 2": -0.174, "Wolbachia per cell robust z, rep 3": -1.4}
{"target": "ix", "dsRNA no.": 1, "Wolbachia per cell robust z, rep 1": 0.58, "Wolbachia per cell robust z, rep 2": 0.871, "Wolbachia per cell robust z, rep 3": 0.762}
{"target": "ix", "dsRNA no.": 2, "Wolbachia per cell robust z, rep 1": -1.24, "Wolbachia per cell robust z, rep 2": -0.208, "Wolbachia per cell robust z, rep 3": 0.987}
{"target": "Pdfr", "dsRNA no.": 1, "Wolbachia per cell robust z, rep 1": 0.617, "Wolbachia per cell robust z, rep 2": -5.89, "Wolbachia per cell robust z, rep 3": 0.508}
{"target": "CG3301", "dsRNA no.": 1, "Wolbachia per cell robust z, rep 1": -0.264, "Wolbachia per cell robust z, rep 2": -0.628, "Wolbachia per cell robust z, rep 3": 1.13}
{"target": "spg", "dsRNA no.": 1, "Wolbachia per cell robust z, rep 1": "0.341 (active)", "Wolbachia per cell robust z, rep 2": -3.12, "Wolbachia per cell robust z, rep 3": -6.24}
{"target": "spg", "dsRNA no.": 2, "Wolbachia per cell robust z, rep 1": 0.834, "Wolbachia per cell robust z, rep 2": 0.15, "Wolbachia per cell robust z, rep 3": -0.608}
{"target": "eEF5", "dsRNA no.": 1, "Wolbachia per cell robust z, rep 1": 0.0312, "Wolbachia per cell robust z, rep 2": -0.0219, "Wolbachia per cell robust z, rep 3": -5.94}
{"target": "Odj", "dsRNA no.": 1, "Wolbachia per cell robust z, rep 1": -0.641, "Wolbachia per cell robust z, rep 2": -1.51, "Wolbachia per cell robust z, rep 3": -0.413}

An excerpt taken from the entries so far, for reference:
{"target": "hyd", "dsRNA no.": 2, "Wolbachia per cell robust z, rep 1": -4.07, "Wolbachia per cell robust z, rep 2": -0.174, "Wolbachia per cell robust z, rep 3": -1.4}
{"target": "ix", "dsRNA no.": 1, "Wolbachia per cell robust z, rep 1": 0.58, "Wolbachia per cell robust z, rep 2": 0.871, "Wolbachia per cell robust z, rep 3": 0.762}
{"target": "ix", "dsRNA no.": 2, "Wolbachia per cell robust z, rep 1": -1.24, "Wolbachia per cell robust z, rep 2": -0.208, "Wolbachia per cell robust z, rep 3": 0.987}
{"target": "Pdfr", "dsRNA no.": 1, "Wolbachia per cell robust z, rep 1": 0.617, "Wolbachia per cell robust z, rep 2": -5.89, "Wolbachia per cell robust z, rep 3": 0.508}

Further reagents:
{"target": "CG7011", "dsRNA no.": 1, "Wolbachia per cell robust z, rep 1": -0.621, "Wolbachia per cell robust z, rep 2": 1.1, "Wolbachia per cell robust z, rep 3": 0.168}
{"target": "CG7011", "dsRNA no.": 2, "Wolbachia per cell robust z, rep 1": 0.00726, "Wolbachia per cell robust z, rep 2": 0.27, "Wolbachia per cell robust z, rep 3": -1.21}
{"target": "Aos1", "dsRNA no.": 1, "Wolbachia per cell robust z, rep 1": 0.843, "Wolbachia per cell robust z, rep 2": -0.126, "Wolbachia per cell robust z, rep 3": -0.313}
{"target": "Aos1", "dsRNA no.": 2, "Wolbachia per cell robust z, rep 1": 1.2, "Wolbachia per cell robust z, rep 2": 1, "Wolbachia per cell robust z, rep 3": 1.14}
{"target": "Dsp1", "dsRNA no.": 1, "Wolbachia per cell robust z, rep 1": 0.535, "Wolbachia per cell robust z, rep 2": 0.656, "Wolbachia per cell robust z, rep 3": 0.718}
{"target": "Dsp1", "dsRNA no.": 2, "Wolbachia per cell robust z, rep 1": -0.115, "Wolbachia per cell robust z, rep 2": -0.0522, "Wolbachia per cell robust z, rep 3": -0.235}
{"target": "CG13071", "dsRNA no.": 1, "Wolbachia per cell robust z, rep 1": -0.928, "Wolbachia per cell robust z, rep 2": 0.455, "Wolbachia per cell robust z, rep 3": 0.811}
{"target": "Erk7", "dsRNA no.": 1, "Wolbachia per cell robust z, rep 1": -4.71, "Wolbachia per cell robust z, rep 2": 1.23, "Wolbachia per cell robust z, rep 3": -0.0487}
{"target": "Erk7", "dsRNA no.": 2, "Wolbachia per cell robust z, rep 1": "0.0358 (active)", "Wolbachia per cell robust z, rep 2": -5.7, "Wolbachia per cell robust z, rep 3": -3.91}
{"target": "Erk7", "dsRNA no.": 3, "Wolbachia per cell robust z, rep 1": -2.04, "Wolbachia per cell robust z, rep 2": -1.39, "Wolbachia per cell robust z, rep 3": 0.0944}
{"target": "NimB5", "dsRNA no.": 1, "Wolbachia per cell robust z, rep 1": 0.194, "Wolbachia per cell robust z, rep 2": 0.417, "Wolbachia per cell robust z, rep 3": 0.499}
{"target": "CG16894", "dsRNA no.": 1, "Wolbachia per cell robust z, rep 1": -3.29, "Wolbachia per cell robust z, rep 2": -1.37, "Wolbachia per cell robust z, rep 3": -2.37}
{"target": "CG16894", "dsRNA no.": 2, "Wolbachia per cell robust z, rep 1": -0.793, "Wolbachia per cell robust z, rep 2": -0.751, "Wolbachia per cell robust z, rep 3": -1.68}
